Data on three molecules can be found in US9617276B2, “Compounds and methods for treating AIDS and HIV infections” (priority 2009, dated 2017).

For one assay, the target named is HIV-1 protease (Human immunodeficiency virus type 1 group M subtype B, UniProt P04585).
In a further assay the test system is HIV-1. As to the kind of experiment: antiviral assay (IC50). Conditions: Table 2.
Another assay has as its system HIV-1286-1μM. Conditions: read-out: EC50 (μM), HIV-1286-1 μM; MT-4 cells, p24 Gag.
Assay [1] concerns HIV-1NL4-3. The assay is described as follows: p24 Gag inhibition in MT-4 cells, HIV-1NL4-3. Format: cell-based. The note with it: read-out: EC50 (μM), HIV-1NL4-3, Table 9, mean ± 1 SD.
Assay [2] concerns HIV-1NL4-3. As to the kind of experiment: in vitro selection of PI-resistant HIV-1 variants in MT-4 cells. Format: cell-based. Conditions: HIV-1NL4-3 in MT-4 cells, increasing drug concentrations.

SMILES strings stand for the structures. Where two headings read alike, the source gives them in different places.

As to `C=CCOc1cc(OC)ccc1S(=O)(=O)N(CC=C)C[C@@H](O)[C@H](Cc1ccccc1)NC(=O)O[C@H]1CO[C@H]2OCC[C@H]21`, the Ki was 0.1 nM on HIV-1 protease and below 1 nM on HIV-1 protease (Table 1, acyclic compounds).
Molecule `COc1ccc2c(c1)OCCCCCCN(C[C@@H](O)[C@H](Cc1ccccc1)NC(=O)O[C@H]1CO[C@H]3OCC[C@H]31)S2(=O)=O` showed an IC50 in the assay on HIV-1 below 100 nM. The Ki on HIV-1 protease (Table 2) is below 1 nM.
As to `COc1ccc2c(c1)OCCCCCCCCN(C[C@@H](O)[C@H](Cc1ccccc1)NC(=O)O[C@H]1CO[C@H]3OCC[C@H]31)S2(=O)=O`, the IC50 in the assay with HIV-1 is below 100 nM. Besides, the values for the EC50 in the assay on HIV-1286-1μM and with HIV-1NL4-3 [1] were above 1 µM and 0.033 µM, respectively. On HIV-1 protease (Table 2), this molecule displayed a Ki below 1 nM. Further, in the assay on HIV-1NL4-3 [2], the “passage by which HIV-1 variants replicating in the presence of 1 μM drug emerged” value worked out at 33 passages.
